For the experiment, the target named is Neuronal acetylcholine receptor; alpha4/beta2 (Homo sapiens, UniProt P17787+P43681). The experiment in a line: Agonist activity at human alpha4beta2 nAChR by cell-based rubidium flux assay relative to 100 uM nicotine. Put shortly:
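Stably transfected cells expressing rat α3β4 or human α4β2 nAChR were used near confluence. They were preloaded with 86Rb+, washed, stimulated with test agonist, and the medium was separated before lysis. Efflux was taken as medium counts over total counts. […] Results are the mean ± SEM of 3–4 independent experiments.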

Chains of the proteins cited; added tags and fusions are not shown. Lines headed by an entry give the natural chain unless they say otherwise; changes in a name come on top.
UniProt P17787: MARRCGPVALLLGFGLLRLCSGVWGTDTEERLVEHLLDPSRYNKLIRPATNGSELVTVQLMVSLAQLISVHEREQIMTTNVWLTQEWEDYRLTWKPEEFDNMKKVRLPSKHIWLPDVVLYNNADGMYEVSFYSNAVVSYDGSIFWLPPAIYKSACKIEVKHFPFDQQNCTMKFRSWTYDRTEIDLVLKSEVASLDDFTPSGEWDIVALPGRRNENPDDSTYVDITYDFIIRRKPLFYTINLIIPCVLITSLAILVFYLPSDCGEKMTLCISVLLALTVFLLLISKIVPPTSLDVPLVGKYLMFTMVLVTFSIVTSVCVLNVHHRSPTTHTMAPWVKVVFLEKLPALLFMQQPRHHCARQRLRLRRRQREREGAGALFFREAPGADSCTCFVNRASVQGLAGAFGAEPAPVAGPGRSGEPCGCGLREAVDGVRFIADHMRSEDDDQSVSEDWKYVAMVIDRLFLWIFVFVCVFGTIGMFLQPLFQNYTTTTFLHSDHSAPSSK
UniProt P43681: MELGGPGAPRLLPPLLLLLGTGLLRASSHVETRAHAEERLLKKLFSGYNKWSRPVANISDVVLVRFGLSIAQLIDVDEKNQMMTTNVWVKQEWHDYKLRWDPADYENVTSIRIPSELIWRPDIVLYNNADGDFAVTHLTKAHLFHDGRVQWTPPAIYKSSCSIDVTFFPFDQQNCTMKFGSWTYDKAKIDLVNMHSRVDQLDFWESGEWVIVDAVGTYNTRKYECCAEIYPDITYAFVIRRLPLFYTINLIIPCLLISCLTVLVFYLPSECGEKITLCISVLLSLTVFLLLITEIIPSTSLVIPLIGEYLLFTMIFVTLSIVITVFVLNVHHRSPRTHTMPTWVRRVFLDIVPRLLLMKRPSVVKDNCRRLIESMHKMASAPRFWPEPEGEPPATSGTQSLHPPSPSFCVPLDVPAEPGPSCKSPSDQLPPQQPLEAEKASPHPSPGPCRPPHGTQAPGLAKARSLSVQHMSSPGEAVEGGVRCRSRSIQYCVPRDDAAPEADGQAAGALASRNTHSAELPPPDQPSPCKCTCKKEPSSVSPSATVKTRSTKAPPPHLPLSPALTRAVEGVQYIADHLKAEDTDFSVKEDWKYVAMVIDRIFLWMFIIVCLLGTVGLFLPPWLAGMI

The structures appear in SMILES notation.

As usually defined, the Emax is the maximal effect, on the per cent scale that the assay sets. The compound `CN1CCC[C@H]1c1ccccc1` returned an Emax of 103%.

Source of the values: ChEMBL document CHEMBL4251743, “Absolute Configuration and Pharmacology of the Poison Frog Alkaloid Phantasmidine” (J Nat Prod, 2018).
